Measurements as given in publication PMC8228323, “Biodegradation of L-Valine Alkyl Ester Ibuprofenates by Bacterial Cultures” (Materials, 2021).

Tested on: active sludge (bacterial cultures)
Test: Degradation by active sludge indicated by consumption of the tested compounds (HPLC of test vessel)
Conditions: for Degradation rate by active sludge: at 29–68 days; for Degradation rate: between 1–28 days; for Amount of compound degraded: within 68 days; for Amount of compound degraded / Degradation of the compound: active sludge; for Degradation of the compound: within / after 68 days

SMILES	Degradation rate by active sludge [%/day]	Degradation rate [%]	Amount of compound degraded [mg/L]	Degradation of the compound [%]	Detection of the test compound in the test vessel by HPLC (after 28 days of biodegradation)
CC(C)Cc1ccc(C(C)C(=O)O)cc1.CCCOC(=O)[C@@H](N)C(C)C (stereo not shown) [[ValOPr][IBU]]	≥ 1	2.5	57.38	~100	–
CCCCCCCCCCCCOS(=O)(=O)[O-].[Na+] [SDS, sodium dodecyl sulfate, reference compound]	–	3.1	84.11	~100	–
CC(C)Cc1ccc(C(C)C(=O)O)cc1 (stereo not shown) [IBU, ibuprofen]	≥ 1	2.3	52.71	~100	–
CC(C)Cc1ccc(C(C)C(=O)O)cc1.CCCCCOC(=O)[C@@H](N)C(C)C (stereo not shown) [[ValOAm][IBU]]	≤ 1	2.1	–	89.0	could still be detected
CC(C)Cc1ccc(C(C)C(=O)O)cc1.CCCCOC(=O)[C@@H](N)C(C)C (stereo not shown) [[ValOBu][IBU]]	≤ 1	2.1	56.87	~100	–
CC(C)Cc1ccc(C(C)C(=O)O)cc1.CCCCCCCCOC(=O)[C@@H](N)C(C)C [[ValOOct][IBU]]	≤ 1	1.4	–	42.0	–
CC(C)Cc1ccc(C(C)C(=O)O)cc1.CCOC(=O)[C@@H](N)C(C)C (stereo not shown) [[ValOEt][IBU]]	≥ 1	2.3	57.58	~100	–
CC(C)Cc1ccc(C(C)C(=O)O)cc1.CC(C)OC(=O)[C@@H](N)C(C)C (stereo not shown) [[ValOiPr][IBU]]	≥ 1	2.8	57.38	~100	–
CC(C)Cc1ccc(C(C)C(=O)O)cc1.CCCCCCCOC(=O)[C@@H](N)C(C)C (stereo not shown) [[ValOHept][IBU]]	≤ 1	1.9	–	74.0	–
CC(C)Cc1ccc(C(C)C(=O)O)cc1.CCCCCCOC(=O)[C@@H](N)C(C)C (stereo not shown) [[ValOHex][IBU]]	≤ 1	2.0	–	75.0	–
CC(C)Cc1ccc(C(C)C(=O)O)cc1.COC(=O)[C@@H](N)C(C)C (stereo not shown) [[ValOMe][IBU]]	≥ 1	3.4	58.57	~100	–
